Where two headings read alike, the source gives them in different places.
Legend:
[1] = tested on: sialidase of influenza virus A/Singapore/1/57 (H2N2); assay type: biochemical, human isolate; conditions: read-out: Inhibitory activity (IC50, μM) Neu5Ac-DSPE as substrate
[2] = tested on: sialidase of influenza virus A/duck/36/4/76 (H1N1); assay type: biochemical, avian isolate; conditions: read-out: Inhibitory activity (IC50, μM) Neu5Ac-DSPE as substrate
[3] = tested on: sialidase of influenza virus A/duck/313/4/78 (H5N3); assay type: biochemical, avian isolate
[4] = tested on: sialidase of influenza virus A/swine/Hokkaido/2/81 (H1N1); assay type: biochemical, swine isolate; conditions: read-out: Inhibitory activity (IC50, μM) 4-MU-Neu5Ac as substrate

Measured: IC50

CCCCCCCCCCCCCCCCCC(=O)CC(COC(=O)CCCCCCCCCCCCCCCCC)COP(=O)(O)OCCNCCOC1(C(=O)O)OC(C(O)C(O)CO)C(NC(C)=O)C(O)C1F (centres unmarked) [Compound 9]
62.5 µM: [1] | [2] | [3]; read-out: Inhibitory activity (IC50, μM) 4-MU-Neu5Ac as substrate | [3]; read-out: Inhibitory activity (IC50, μM) Neu5Ac-DSPE as substrate | [4]

From patent US6664235B1, “Medicaments comprising sialic acid derivatives as active ingredients” (priority 1999, dated 2003)
